A mixed list of measured activities; the numbers were collected in NIAID ChemDB.

Common to all: tests on isolated targets; agent: Hepatitis C virus

Conditions beyond the fields shown may differ between rows. ICn is the concentration giving n% inhibition. Blank or dashed fields: not listed here. Two numbers with a dash give a range or band. Inhibition is in % at the dose shown (toxicity tests: loss of growth or viability).

{"structure": "COc1cc(Br)c2oc(-c3ccc4cc(-c5nc6cc(C(=O)O)ccc6n5C5CCCCC5)ccc4n3)cc2c1", "protein": "NS5B polymerase", "read-out": "inhibition", "dose": "100 µM", "result": "100%"}
{"structure": "O=C(O)c1nc(-c2ccccc2Cl)[nH]c(=O)c1O", "protein": "HCV polymerase", "read-out": "IC50", "result": "<100 µM"}
{"structure": "Cn1cccc1-c1nc2cc(C(=O)NC3(C(=O)Nc4ccc(/C=C/C(=O)O)cc4)CCCC3)ccc2n1C1CCC1", "protein": "NS5B polymerase", "read-out": "IC50", "result": "0.5–5 µM"}
{"structure": "COc1ccc(-c2ccc(Cl)cc2)c(-c2ccc3cc(-c4nc5cc(C(=O)O)ccc5n4C4CCCCC4C)ccc3n2)c1", "protein": "NS5B polymerase", "read-out": "inhibition", "dose": "33 µM", "result": "103%"}
{"structure": "Cc1ccc(C(=O)N(Cc2ccc(Cl)cc2)c2cc(-c3ccccc3)sc2C(=O)O)cc1", "protein": "NS3 ATPase", "read-out": "IC50", "result": "<5 µM"}
{"structure": "CC[C@@H](C=O)NC(=O)[C@@H]1C[C@@H](OCc2ccccc2)CN1C(=O)[C@@H](NC(=O)[C@H](Cc1ccc(OCc2ccccc2)cc1)NC(=O)c1cnccn1)C(C)C", "protein": "NS3 protease", "read-out": "Ki", "result": "1–100 µM"}
{"structure": "Cc1cc(-c2ccc3cc(-c4nc5cc(C(=O)O)ccc5n4C4CCCCC4)ccc3n2)c(-c2ccccc2)s1", "protein": "NS5B polymerase", "read-out": "inhibition", "dose": "33 µM", "result": "97.1%"}
{"structure": "CC[C@@H](C=O)NC(=O)[C@@H]1C[C@@H](OCc2ccccc2)CN1C(=O)[C@@H](NC(=O)[C@H](CC)NC(=O)c1cnccn1)C(C)C", "protein": "NS3 protease", "read-out": "Ki", "result": ">100 µM"}
{"structure": "CCN(CC)c1nc(COc2cc3c(C(=O)NC)c(-c4ccc(F)cc4)oc3cc2N(C)S(C)(=O)=O)ns1", "protein": "Nonstructural protein 5B", "read-out": "IC50", "result": "≤0.5 µM"}
{"structure": "C[C@@H](NC(=O)c1ccc2c(c1)nc(-c1ccoc1)n2C1CCCCC1)C(=O)Nc1ccc2oc(C(=O)O)cc2c1", "protein": "NS5B polymerase", "read-out": "IC50", "result": "<0.5 µM"}
{"structure": "O=C(O)c1nc(-c2cscc2NC(=O)C(O)c2ccccc2)[nH]c(=O)c1O", "protein": "HCV polymerase", "read-out": "IC50", "result": "<25 µM"}
{"structure": "CNC(=O)c1c(-c2ccc(F)cc2)oc2cc(N(C)S(C)(=O)=O)c(Oc3nc(CCl)ns3)cc12", "protein": "Nonstructural protein 5B", "read-out": "IC50", "result": "≤0.5 µM"}
{"structure": "CC[C@@H](C=O)NC(=O)[C@@H]1C[C@@H](OCc2ccccc2)CN1C(=O)[C@@H](NC(=O)[C@@H](NC(=O)NC)C(C)C)C(C)C", "protein": "NS3 protease", "read-out": "Ki", "result": "1–100 µM"}
{"structure": "O=C(O)c1sc(-c2ccccc2)cc1N(Cc1ccc(Cl)cc1)C(=O)CC1CCCC1", "protein": "NS3 ATPase", "read-out": "IC50", "result": "<5 µM"}
{"structure": "CNC(=O)c1c(-c2ccc(F)cc2)oc2cc(N(CS(C)(=O)=O)OC)c(O)cc12", "protein": "Nonstructural protein 5B", "read-out": "IC50", "result": "≤0.5 µM"}
{"structure": "O=C(O)/C=C/c1ccc(NC(=O)[C@@H](NC(=O)c2ccc3c(c2)nc(-c2ccoc2)n3C2CCCCC2)c2ccccc2)cc1", "protein": "NS5B polymerase", "read-out": "IC50", "result": "0.5–5 µM"}
{"structure": "O=C(O)c1nc(-c2cc([N+](=O)[O-])cs2)[nH]c(=O)c1O", "protein": "HCV polymerase", "read-out": "IC50", "result": "<25 µM"}
{"structure": "CCN(c1cc2oc(-c3ccc(F)cc3)c(C(=O)NC)c2cc1OC(C)C)S(C)(=O)=O", "protein": "Nonstructural protein 5B", "read-out": "IC50", "result": "≤0.5 µM"}
{"structure": "O=C(NC(Cc1c[nH]c2ccc(O)cc12)C(=O)O)c1ccc2c(c1)nc(-c1ccc3ncc(-c4ccccc4)nc3c1)n2C1CCCCC1", "protein": "NS5B polymerase", "read-out": "inhibition", "dose": "33 µM", "result": "99.19%"}
{"structure": "COc1csc(-c2nc(C(=O)O)c(O)c(=O)[nH]2)c1", "protein": "HCV polymerase", "read-out": "IC50", "result": "<25 µM"}
{"structure": "COCC(C)N(C(=O)C1CCC(C)CC1)c1cc(-c2ccccc2)sc1C(=O)O", "protein": "NS3 ATPase", "read-out": "IC50", "result": "<5 µM"}
{"structure": "COc1cccc(CNC(=O)Nc2cscc2-c2nc(C(=O)O)c(O)c(=O)[nH]2)c1", "protein": "HCV polymerase", "read-out": "IC50", "result": "<25 µM"}
{"structure": "Nc1ncc(-c2ccc(NC(=O)C3(NC(=O)c4ccc5c(c4)nc(-c4ccoc4)n5C4CCCCC4)CCCC3)cc2)cn1", "protein": "NS5B polymerase", "read-out": "IC50", "result": "0.5–5 µM"}
{"structure": "CC[C@@H](C=O)NC(=O)[C@@H]1C[C@@H](NC(=O)NCc2ccccc2)CN1C(=O)[C@@H](NC(=O)[C@@H](NC(=O)c1cnccn1)C(C)C)C(C)C", "protein": "NS3 protease", "read-out": "Ki", "result": "1–100 µM"}
{"structure": "C[C@@H](NC(=O)Nc1cccc(-c2nc(C(=O)O)c(O)c(=O)[nH]2)c1)c1ccccc1", "protein": "HCV polymerase", "read-out": "IC50", "result": "<100 µM"}
{"structure": "C[C@@H](NC(=O)c1ccc2c(c1)nc(-c1ccoc1)n2C1CCCCC1)C(=O)Nc1ccc(CCC(=O)O)cc1", "protein": "NS5B polymerase", "read-out": "IC50", "result": "0.5–5 µM"}
{"structure": "O=C(O)c1ccc2c(c1)nc(-c1ccc3nc(-c4cc(Br)ccc4O)ccc3c1)n2C1CCCCC1", "protein": "NS5B polymerase", "read-out": "inhibition", "dose": "100 µM", "result": "101%"}
{"structure": "COC(=O)c1sc(-c2ccc(C#N)cc2)cc1NS(=O)(=O)c1ccc(C)cc1C", "protein": "NS3 ATPase", "read-out": "IC50", "result": "<5 µM"}
{"structure": "O=C(O)c1cnc2c(c1)nc(-c1ccc3nc(-c4ccccc4-c4ccc(Cl)cc4)ccc3c1)n2C1CCCCC1", "protein": "NS5B polymerase", "read-out": "inhibition", "dose": "33 µM", "result": "95.94%"}
{"structure": "Cc1ccc(C(=O)N(C)c2cc(-c3cccc(C(F)(F)F)c3)sc2C(=O)O)cc1", "protein": "NS3 ATPase", "read-out": "IC50", "result": "<5 µM"}
{"structure": "CSCCC(NC(=O)c1ccc2c(c1)nc(-c1cc3ncc(-c4ccccc4)nc3cc1F)n2C1CCCCC1)C(=O)O", "protein": "NS5B polymerase", "read-out": "inhibition", "dose": "100 µM", "result": "88.31%"}
{"structure": "O=C(NC1(C(=O)Nc2ccc(Cl)nc2)CCCC1)c1ccc2c(c1)nc(-c1ccoc1)n2C1CCCCC1", "protein": "NS5B polymerase", "read-out": "IC50", "result": "0.5–5 µM"}
{"structure": "O=C(NCc1cc(Br)cs1)Nc1cscc1-c1nc(C(=O)O)c(O)c(=O)[nH]1", "protein": "HCV polymerase", "read-out": "IC50", "result": "<25 µM"}
{"structure": "COc1ccc(-c2ccc(CN)cc2)c(-c2ccc3cc(-c4nc5cc(C(=O)O)ccc5n4C4CCCCC4)ccc3n2)c1", "protein": "NS5B polymerase", "read-out": "inhibition", "dose": "100 µM", "result": "99.26%"}

Again, the opening 4 rows:

| structure | protein | read-out | dose | result |
|---|---|---|---|---|
| COc1cc(Br)c2oc(-c3ccc4cc(-c5nc6cc(C(=O)O)ccc6n5C5CCCCC5)ccc4n3)cc2c1 | NS5B polymerase | inhibition | 100 µM | 100% |
| O=C(O)c1nc(-c2ccccc2Cl)[nH]c(=O)c1O | HCV polymerase | IC50 | - | <100 µM |
| Cn1cccc1-c1nc2cc(C(=O)NC3(C(=O)Nc4ccc(/C=C/C(=O)O)cc4)CCCC3)ccc2n1C1CCC1 | NS5B polymerase | IC50 | - | 0.5–5 µM |
| COc1ccc(-c2ccc(Cl)cc2)c(-c2ccc3cc(-c4nc5cc(C(=O)O)ccc5n4C4CCCCC4C)ccc3n2)c1 | NS5B polymerase | inhibition | 33 µM | 103% |